Measured values from the supplement of paper PMC3578754.
Fold change is the IC50 on the isolate divided by the IC50 on a reference virus; 1 = unchanged, higher = more resistant. Changes are given against the subtype B consensus. No active / inactive call. The values were gathered from many studies (numbered anew) with different assays, which the source does not name. Most viruses are clinical isolates; some are laboratory strains or clones with known resistance changes. Isolates with mixed residues are left out; stretches that were not sequenced show no change. Round top values that many isolates share are read here as limits; other very high values and 0.1 may be limits too. The protease changes I3V and N37S, insertions and deletions cannot be read from the source.

Columns and labels:
Test in all cases: fold change of IC50 against reference virus; higher = more resistant; Cell-culture drug susceptibility tests of virus bearing the protease of each isolate, gathered from many studies.
tipranavir = compound: CCC[C@@]1(CCc2ccccc2)CC(O)=C([C@H](CC)c2cccc(NS(=O)(=O)c3ccc(C(F)(F)F)cn3)c2)C(=O)O1 [tipranavir]
lopinavir = compound: Cc1cccc(C)c1OCC(=O)N[C@@H](Cc1ccccc1)[C@@H](O)C[C@H](Cc1ccccc1)NC(=O)[C@H](C(C)C)N1CCCNC1=O [lopinavir]
saquinavir = compound: CC(C)(C)NC(=O)[C@@H]1C[C@@H]2CCCC[C@@H]2CN1C[C@@H](O)[C@H](Cc1ccccc1)NC(=O)[C@H](CC(N)=O)NC(=O)c1ccc2ccccc2n1 [saquinavir]
ritonavir = compound: CC(C)c1nc(CN(C)C(=O)N[C@H](C(=O)N[C@@H](Cc2ccccc2)C[C@H](O)[C@H](Cc2ccccc2)NC(=O)OCc2cncs2)C(C)C)cs1 [ritonavir]
atazanavir = compound: COC(=O)N[C@H](C(=O)N[C@@H](Cc1ccccc1)[C@@H](O)CN(Cc1ccc(-c2ccccn2)cc1)NC(=O)[C@@H](NC(=O)OC)C(C)(C)C)C(C)(C)C [atazanavir]
nelfinavir = compound: Cc1c(O)cccc1C(=O)N[C@@H](CSc1ccccc1)[C@H](O)CN1C[C@H]2CCCC[C@H]2C[C@H]1C(=O)NC(C)(C)C [nelfinavir]
indinavir = compound: CC(C)(C)NC(=O)[C@@H]1CN(Cc2cccnc2)CCN1C[C@@H](O)C[C@@H](Cc1ccccc1)C(=O)N[C@H]1c2ccccc2C[C@H]1O [indinavir]

Test System | fold change of IC50 against reference virus (tipranavir) | fold change of IC50 against reference virus (lopinavir) | fold change of IC50 against reference virus (saquinavir) | fold change of IC50 against reference virus (ritonavir) | fold change of IC50 against reference virus (atazanavir) | fold change of IC50 against reference virus (nelfinavir) | fold change of IC50 against reference virus (indinavir)
HIV-1 isolate 1078 (protease changes: L19Q M36I N37C I62V L63P I64V, study 64) | 1.3 | 1.1 | 0.8 | 1 | 0.8 | 1.7 | 1.1
HIV-1 isolate 1082 (protease changes: R57K L63Q, study 64) | 0.4 | 0.6 | 0.4 | 0.7 | 0.7 | 0.5 | 0.5
HIV-1 isolate 1113 (protease changes: none, study 64) | 0.5 | 0.6 | 0.5 | 0.7 | 0.7 | 0.6 | 0.8
HIV-1 isolate 1152 (protease changes: L10V I13V I15V L19I K20T V32I M36I M46I I47V Q58E L63P I64V I84V Q92K, study 64) | 16 | 78 | 5.5 | 34 | 33 | 29 | 17
HIV-1 isolate 1161 (protease changes: I13V P39Q I62V L63P V77I, study 64) | 0.8 | 0.5 | 0.5 | 0.5 | 0.6 | 1 | 0.6
HIV-1 isolate 1165 (protease changes: L19I R57K L63S I64V E65D, study 64) | 1.1 | 1.2 | 0.8 | 1.2 | 0.9 | 1.6 | 1.3
HIV-1 isolate 1185 (protease changes: T12I L33V K45R R57K L63P I64V, study 15) | 1.6 | 0.8 | 0.9 | 1 | 1.3 | 1.7 | 1.2
HIV-1 isolate 1186 (protease changes: T12N K14R I15V G16E K20M M36I P39Q L63S I64V K70R, study 64) | 1.1 | 1.3 | 1.4 | 1.4 | 1.1 | 1.3 | 1.2
HIV-1 isolate 1191 (protease changes: I13V N37T L63E I64V E65D V77I, study 64) | 0.5 | 0.4 | 0.6 | 0.7 | 0.6 | 0.9 | 0.7
HIV-1 isolate 1256 (protease changes: R57K L63A V77I, study 64) | 0.8 | 0.8 | 0.8 | 0.7 | 0.8 | 1.2 | 1
HIV-1 isolate 1259 (protease changes: L10F I13V G16A L19V L33F E34Q K43I M46L G51A I54M L63P I64M A71V I72M G73A I84V L90M, study 64) | 12 | 70 | 66 | ≥ 800 | 90 | 52 | 22
HIV-1 isolate 1300 (protease changes: I3L L10I R41K R57K L63Q I64V I72V V77I, study 64) | 0.8 | 0.8 | 0.6 | 0.9 | 0.9 | 1.1 | 1
HIV-1 isolate 1305 (protease changes: L63T V77I, study 64) | 0.5 | 0.5 | 0.6 | 0.6 | 0.7 | 1 | 0.6
HIV-1 isolate 1309 (protease changes: L10I I13V L33F E35D K43T I54L L63P I64L V77I L90M, study 64) | 1.5 | 2.1 | 3.9 | 10 | 3.2 | 4.4 | 1.4
HIV-1 isolate 1310 (protease changes: I15V L19T K20R M36I R41K I62V K70R V82L, study 64) | 2 | 0.8 | 1.1 | 4.3 | 1.2 | 0.9 | 0.7
HIV-1 isolate 1327 (protease changes: I13V K14R I15V G16A E35D N37D L63P, study 64) | 0.8 | 0.6 | 0.7 | 0.7 | 0.7 | 0.7 | 0.6
HIV-1 isolate 1331 (protease changes: I13V K14R, study 64) | 0.5 | 0.4 | 0.4 | 0.4 | 0.5 | 0.4 | 0.5
HIV-1 isolate 1342 (protease changes: L10I T12K L33F R41K K43T M46I I50L I54V K55R I62V L63P A71V I72L G73T V77I V82A L90M I93L C95F, study 15) | 0.9 | 13 | 2.6 | 30 | 110 | 6.4 | 9.8
HIV-1 isolate 1344 (protease changes: L10I K43S M46I I54V R57K I62V L63P A71V G73T V77I V82F L90M I93L, study 64) | 3.4 | 160 | 19 | ≥ 800 | 72 | 124 | 170

Test System | fold change of IC50 against reference virus (tipranavir) | fold change of IC50 against reference virus (lopinavir) | fold change of IC50 against reference virus (saquinavir) | fold change of IC50 against reference virus (ritonavir) | fold change of IC50 against reference virus (atazanavir) | fold change of IC50 against reference virus (nelfinavir) | fold change of IC50 against reference virus (indinavir)
HIV-1 isolate 1352 (protease changes: I3F L10I K20R V32I L33F E34K E35D M36I N37D R41K K43E K45R I54M D60K L63P A71V I72T V77I I84V L90M I93L, study 64) | 28 | 51 | 27 | ≥ 800 | 184 | 79 | 29
HIV-1 isolate 1354 (protease changes: L10R V32I N37H R41K M46I I47V I50L L63P A71I I72V V77I V82T L90M I93L, study 64) | 4.5 | 8 | 1.3 | 12 | 161 | 8.3 | 13
HIV-1 isolate 1366 (protease changes: L10I L24I L33F E35D M36I R41P K45R M46I I50L L63P I64V H69Y A71V V82S I93L, study 15) | 0.6 | 7.5 | 0.9 | 36 | 208 | 6.6 | 6.7
HIV-1 isolate 1367 (protease changes: L63P I64L, study 64) | 0.8 | 1 | 0.9 | 0.4 | 1 | 0.9 | 0.6
HIV-1 isolate 1375 (protease changes: T12A I13V L63P, study 64) | 1.4 | 1.3 | 1.1 | 0.8 | 1.1 | 1.4 | 1.6
HIV-1 isolate 1386 (protease changes: E35D M36I R41K I62V L63P V77I I93L, study 64) | 1.3 | 1 | 1 | 1.4 | 1.1 | 2.5 | 1.2
HIV-1 isolate 1394 (protease changes: T4P L10V I13V L19I L33F E35D M36I N37C M46I L63P A71T I84V N88D Q92R I93L, study 64) | 11 | 14 | 11 | 48 | 14 | 13 | 5.6
HIV-1 isolate 1395 (protease changes: L10I I15V L19I K20R M36I R41K M46L I54V L63P A71V L76V V82A L90M I93L, study 64) | 0.9 | 33 | 3.8 | 43 | 0.7 | 6.8 | 22
HIV-1 isolate 1399 (protease changes: I13V D30N K43T M46I D60E Q61E L63P V77I I93L, study 64) | 0.4 | 0.7 | 0.6 | 0.6 | 1.5 | 19 | 1.4
HIV-1 isolate 1405 (protease changes: L10I I13V K20L M46I Q58E I62V L63P A71T T74S V77I N88S L90M Q92K, study 64) | 0.9 | 3.9 | 10 | 4.3 | 16 | 80 | 16
HIV-1 isolate 1423 (protease changes: L10I I15V L19I K20R M36I R41K M46L I54V L63P A71V L76V V82A L90M I93L, study 64) | 0.9 | 33 | 3.8 | 43 | 0.7 | 6.8 | 22
HIV-1 isolate 1431 (protease changes: L10F I13V L33I M36I R41K M46L I54L L63P I64V N88D, study 64) | 0.8 | 5 | 2.4 | 5.5 | 3 | 3.6 | 2.9
HIV-1 isolate 1433 (protease changes: L10I K20I E35D M36I M46I I62V L63P I64V A71V I72V L76V L90M I93L, study 64) | 0.6 | 18 | 3 | 6 | 1.9 | 9.3 | 23
HIV-1 isolate 1440 (protease changes: R57K L63P E65D, study 64) | 0.9 | 0.8 | 0.9 | 0.6 | 0.7 | 0.8 | 0.6
HIV-1 isolate 1449 (protease changes: I13V I15V K20R M36I R41K H69K L89M I93L, study 64) | 0.5 | 0.3 | 0.5 | 0.2 | 0.5 | 0.3 | 0.4
HIV-1 isolate 1455 (protease changes: K14R R41K I64V Q92K, study 64) | 0.6 | 0.7 | 0.6 | 0.7 | 0.7 | 0.9 | 0.6
HIV-1 isolate 1460 (protease changes: L10V I13V I15V G16A K20R V32I L33F M36I K43T M46I I47V I54M L63P A71V V82T L90M, study 64) | ≥ 800 | 287 | 15 | ≥ 800 | 70 | 10 | 57
HIV-1 isolate 1464 (protease changes: K14R N37D R41K I62V L63A V77I I93L, study 64) | 0.7 | 0.4 | 0.7 | 0.7 | 0.7 | 1.4 | 0.8
